By UniProt entry, the sequences of proteins in these tests, tags left out. Residues count along the entry.
UniProt A0A1X7RQW2, 36-181: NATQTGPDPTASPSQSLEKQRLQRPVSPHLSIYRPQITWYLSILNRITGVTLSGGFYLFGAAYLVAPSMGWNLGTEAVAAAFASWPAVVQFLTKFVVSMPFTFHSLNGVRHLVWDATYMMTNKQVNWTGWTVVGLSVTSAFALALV
UniProt F9X9V6, 1-193: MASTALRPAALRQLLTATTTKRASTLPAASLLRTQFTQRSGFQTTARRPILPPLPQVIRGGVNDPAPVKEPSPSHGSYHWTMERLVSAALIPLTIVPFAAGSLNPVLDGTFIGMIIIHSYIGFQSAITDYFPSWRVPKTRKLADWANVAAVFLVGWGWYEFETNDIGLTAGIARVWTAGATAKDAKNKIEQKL
UniProt O42772, 20-297: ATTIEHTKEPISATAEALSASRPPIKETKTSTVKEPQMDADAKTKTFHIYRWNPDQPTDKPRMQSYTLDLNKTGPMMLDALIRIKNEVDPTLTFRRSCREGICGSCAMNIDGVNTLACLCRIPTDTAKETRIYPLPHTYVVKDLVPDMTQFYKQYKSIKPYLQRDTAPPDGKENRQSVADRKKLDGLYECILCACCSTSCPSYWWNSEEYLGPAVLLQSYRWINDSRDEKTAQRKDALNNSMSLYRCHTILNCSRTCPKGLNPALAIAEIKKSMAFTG
UniProt O42772, 19-297: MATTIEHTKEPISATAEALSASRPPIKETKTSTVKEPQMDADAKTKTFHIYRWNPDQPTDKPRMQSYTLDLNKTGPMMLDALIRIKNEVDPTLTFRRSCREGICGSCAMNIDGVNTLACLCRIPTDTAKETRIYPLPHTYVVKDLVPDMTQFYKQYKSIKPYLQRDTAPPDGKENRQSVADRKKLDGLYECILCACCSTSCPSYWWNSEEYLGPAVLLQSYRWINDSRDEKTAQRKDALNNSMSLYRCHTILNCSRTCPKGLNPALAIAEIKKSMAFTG
UniProt F9XH52, 44-187: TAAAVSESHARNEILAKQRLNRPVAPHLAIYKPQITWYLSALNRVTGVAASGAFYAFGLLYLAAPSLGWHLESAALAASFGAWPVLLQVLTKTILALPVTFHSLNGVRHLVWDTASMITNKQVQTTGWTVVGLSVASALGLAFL

According to paper PMC6941823, “A dispensable paralog of succinate dehydrogenase subunit C mediates standing resistance towards a subclass of SDHI fungicides in Zymoseptoria tritici” (PLoS Pathogens, 2019):

Key:
[1] = tested on: SQR (SDHC / altC) of IPO323 pTet::SDHC3 transformant, induced; test: Succinate-quinone (SQR) SDHI sensitivity assay on purified mitochondria, IPO323 pTet::SDHC3 induced; assay type: biochemical, Zymoseptoria tritici; details: IC50 ratio compared to IPO323 values
Method: (§1) Succinate-ubiquinone oxidoreductase (SQR) inhibition assays were performed on mitochondrial extracts from a panel of strains that were (i) either carrying a unique C-subunit encoding gene (ZtSDHC1, ZtSDHC1_A84I or Zt-SDHC3), or (ii) carrying two C-subunit encoding genes ZtSDHC1 and ZtSDHC3 (Table 1).
(§2) Biomass production, mitochondrial extraction and purification were performed as described in [14]. Succinate: ubiquinone/DCPIP sensitivity tests were performed as described in [14] with minor modification.

[2] = target: altC-SQR (altC) of D024 SDHC1 KO mitochondria (Zymoseptoria tritici, UniProt A0A1X7RQW2+F9X9V6+O42772); test: Succinate-quinone (SQR) SDHI sensitivity assay on purified mitochondria, 06STD024 SDHC1 KO; assay type: biochemical; details: IC50 ratio compared to IPO323 values
Method: as §1, §2

[3] = target: SQR of 06STD024 (SDHC / altC) mitochondria (Zymoseptoria tritici, UniProt A0A1X7RQW2+F9X9V6+F9XH52+O42772); test: Succinate-quinone (SQR) SDHI sensitivity assay on purified mitochondria, 06STD024; assay type: biochemical; details: IC50 ratio compared to IPO323 values
Method: as §1, §2

[4] = target: SQR (SDHC / altC) of IPO323 pTet::SDHC3 transformant, repressed (Zymoseptoria tritici, UniProt A0A1X7RQW2+F9X9V6+F9XH52+O42772); test: Succinate-quinone (SQR) SDHI sensitivity assay on purified mitochondria, IPO323 pTet::SDHC3 repressed; assay type: biochemical; details: IC50 ratio compared to IPO323 values
Method: as §1, §2

[5] = target: WT-SQR (SDHC), IPO323 mitochondria (Zymoseptoria tritici, UniProt F9X9V6+F9XH52+O42772); test: Succinate-quinone (SQR) SDHI sensitivity assay on purified mitochondria, IPO323; assay type: biochemical
Method: as §1
Biomass production, mitochondrial extraction and purification were performed as described in [14]. Succinate: ubiquinone/DCPIP sensitivity tests were performed as described in [14] with minor modification. The different mitochondrial suspensions were adjusted to similar initial velocity (1 OD595nm hour^-1) and inhibitor concentrations ranged between 0.047nM and 50μM with uniform 4x dilution steps (11 concentrations + DMSO control). Calculated absorbance slopes (OD/min) were used for IC50 calculations using GraphPad Prism 6.07 software non-linear curve fitting against log inhibitor concentrations.

[6] = tested on: Zymoseptoria tritici field and genetically modified strains; test: Liquid culture assay for fungicide sensitivity determination; assay type: cell-based; details: respective to IPO323
Method: Sensitivity towards commercial fungicides was determined for a set of 99 SHA-SDHI-naïve Z. tritici field isolates sampled in Europe between 2006 and 2009. The EC50 of these isolates was determined in liquid growth assays and the data obtained compared for each possible pair of SDHI fungicides (cross-resistance (XR) plots, Fig 1). […] Comparative succinate-quinone reductase (SQR) enzyme inhibition tests were performed with mitochondria extracted from a panel of SHA-SDHIs tolerant and sensitive isolates.
In order to characterize in more depth the mechanisms driving sensitivity differences across the isolates, a subset of eight isolates carrying the ZtSDHC3 gene was analyzed for their sensitivity to SDHIs, alt-SDHC expression and splicing patterns. Liquid culture growth sensitivity tests were performed to determine EC50s for this set of isolates towards a wide range of commercial and research SDHIs (S5 Table).
Pre-culture of the inoculum and fungicide sensitivity tests were performed following previously described procedures. Different ranges of inhibitor concentrations were used for population monitoring and for the detailed phenotyping of a selected set of individual field isolates and genetically modified strains. For fungicide sensitivity monitoring of European field populations, final inhibitors concentrations were between 100 mg.L^-1 and 0.0001 mg.L^-1 with uniform 10x dilution steps (7 inhibitor concentrations + DMSO control). For refined sensitivity analysis of a smaller panel of isolates final inhibitor concentrations ranged between 0.5 mM and 0.47 nM with uniform 4x dilution factor steps (11 inhibitor concentrations+ DMSO control).

[7] = tested on: Zymoseptoria tritici on wheat variety Riband; test: In planta fungicide dose response; assay type: in vivo; details: 06STD024 ZtSDHC1 KO vs 06STD024 ZtSDHC3 KO
Method: The influence of the ZtSDHC3-driven SHA-SDHI resistance for the control of Z. tritici during wheat infection was assessed with a small range of commercial SDHIs (Fig 4C and 4D). In planta SDHIs sensitivity assays were performed with the 06STD024 isolate and its ZtSDHC1 or ZtSDHC3 KO mutants. A control strain (705) devoid of the ZtSDHC3 gene but more aggressive than IPO323 on wheat variety Riband was also included for comparison (Fig 4C and 4D).
Wheat (Triticum aestivum) variety Riband was grown in pots (d = 6.5cm), at a density of 4 plants per pot and treated with the growth regulator CCC (Chlorcholinchlorid; Chlormequat; 5 ml / pot, 0.4% solution) 4 days after sowing. Wheat plantlets were maintained in a climatic room at 18°C, 60% humidity and under a 12h light regime (high intensity). Fungicide applications were performed on 14 days old plantlets for which leaf 2 is the fully expanded target leaf. Fungicide treatments were performed using a custom-made track sprayer adjusted at 200L.ha^-1 (Nozzle: Lechler, orange LU90-01). The fungicides used were Solatenol EC100 (Elatus Plus, benzovindyflupyr), Isopyrazam EC125 (Seguris Flexi or Reflect), Adepidyn EC100 (research formulation of pydiflumetofen). […] In planta EC50 were calculated using the software GraphPad Prism v6.08.

O=C(Nc1ccccc1-c1ccc(Cl)cc1)c1cccnc1Cl [Boscalid]
RF (resistance factor), pTet Induced (SDHC / altC) [1]: 2.4

CC1=C(C(=O)Nc2ccccc2)SCCO1 [Carboxin]
RF (resistance factor), pTet Induced (SDHC / altC) [1]: 0.8

Cn1cc(C(=O)NCCc2ccc(Cl)cc2Cl)c(C(F)F)n1 [Compound 1]
RF (resistance factor), pTet Induced (SDHC / altC) [1]: 4.3 | RF (resistance factor), D024 SDHC1 KO (altC) [2]: 8.3 | RF (resistance factor), 06STD024 (SDHC / altC) [3]: 7.7 | RF (resistance factor), pTet Repressed (SDHC / altC) [4]: 1.4

C[C@@H](Cc1ccc(Cl)cc1Cl)NC(=O)c1cn(C)nc1C(F)F [Compound 2]
RF (resistance factor), pTet Induced (SDHC / altC) [1]: 38.3 | RF (resistance factor), D024 SDHC1 KO (altC) [2]: 67.1 | Fold lower IC50 in comparison to compound 1 ([5]; WT-SQR): 21 fold | RF (resistance factor), 06STD024 (SDHC / altC) [3]: 78.0 | RF (resistance factor), pTet Repressed (SDHC / altC) [4]: 2.9

CON(C(=O)c1cn(C)nc1C(F)F)[C@@H](C)Cc1ccc(Cl)cc1Cl [Compound 3]
RF (resistance factor), D024 SDHC1 KO (altC) [2]: 34.0 | Fold increased potency compared to the matched pair compound 2 ([5]; IC50 ratio, WT-SQR values of Table 1): 7.6 fold | RF (resistance factor), 06STD024 (SDHC / altC) [3]: 39.5

Cc1cc(OC(C)C)ccc1C(=O)C(C)(C)NC(=O)c1sccc1C [Isofetamid]
RF (resistance factor), D024 SDHC1 KO (altC) [2]: >55000

CC(C)CC(C)c1sccc1NC(=O)c1cn(C)nc1C(F)(F)F (stereo not shown) [Penthiopyrad]
RF (resistance factor), pTet Induced (SDHC / altC) [1]: 1.3

CON(C(=O)c1cn(C)nc1C(F)F)[C@@H](C)Cc1c(Cl)cc(Cl)cc1Cl [Pydiflumetofen]
RF (resistance factor), pTet Induced (SDHC / altC) [1]: 2.8 | RF LC (resistance factor in liquid culture) ([6]; strain 06STD024): 6.3 | RF LC (resistance factor in liquid culture) ([6]; strain 07STGB009): 5.5 | RF LC (resistance factor in liquid culture) ([6]; strain 09STD041): 4.4 | RF LC (resistance factor in liquid culture) ([6]; strain 09STD053): 1.4 | RF LC (resistance factor in liquid culture) ([6]; strain 09STF011): 4.0 | RF LC (resistance factor in liquid culture) ([6]; strain 09STF037): 1.8 | RF LC (resistance factor in liquid culture) ([6]; strain 09STF112): 4.2 | RF LC (resistance factor in liquid culture) ([6]; strain 09STIR20.3): 1.8 | RF LC (resistance factor in liquid culture) ([6]; strain IPO323): 1 | RF LC (resistance factor in liquid culture) ([6]; strain IPO94269): 1.1 | In planta EC50 fold higher than 06STD024 ZtSDHC3 KO mutant [7]: 53 fold
